Anti-infective test results gathered from many reports (values: NIAID ChemDB through PubChem).

Common to all: growth or infection tests; organism: Toxoplasma gondii

ECn is the concentration giving n% inhibition of infection, replication or growth. MIC50, MIC90 and the like: level of inhibition, or share of isolates inhibited. An empty or dashed field is not shown. Neighbouring rows are from separate reports. Percent inhibition refers to the dose given; in toxicity tests it is the harm to the cells.

smiles,measure,strain or isolate,dose,cell line,value
COc1ccc(OCc2ccccc2C(=O)NC(=S)Nc2ccc(C)cc2)cc1,EC50,RH beta-gal,,Human foreskin fibroblasts (HFF),44 µM
O=C1C(=O)c2ccccc2C(O)=C1C1CCC(c2ccc(Cl)cc2)CC1,EC50,RH,,,0.03 µM
CCc1nc(N)nc(N)c1-c1ccc(Cl)cc1,EC90,RH,,,0.47 µg/mL
CN1CCC(c2cc(-c3ccncc3)c(-c3ccc(F)cc3)[nH]2)CC1,EC50,TG-PKG FLAG T761Q-KO,,,7.932 µM
CCN(CC)c1ccc(C(=O)NS(=O)(=O)c2ccccc2OC)cc1,MIC50,,,Human foreskin fibroblasts,>0.25 µM
COc1ccc(OCc2ccccc2C(=O)NC(=S)Nc2cc(Cl)ccc2Cl)cc1,EC50,RH beta-gal,,Human foreskin fibroblasts (HFF),57 µM
COC(=O)CCCC(=O)Nc1ccc(C(=O)NC(=O)c2ccccc2O)cc1,MIC50,,,Human foreskin fibroblasts,>1 µM
O=C(NC(=S)Nc1cc(Cl)ccc1Cl)c1ccccc1COc1ccc(Cl)cc1,EC50,RH beta-gal,,Human foreskin fibroblasts (HFF),98 µM
CCc1ccc(C(=O)NC(=O)c2ccccc2OC)cc1,MIC50,,,Human foreskin fibroblasts,>0.25 µM
CC(C)(C)c1ccc(CSc2ncnc3c2ncn3[C@@H]2O[C@H](CO)[C@@H](O)[C@H]2O)cc1,inhibition,RH adenosine kinase-deficient,25 µM,,0%
CCc1ccc(C(=O)NC(=S)c2ccccc2O)cc1,MIC90,,,Human foreskin fibroblasts,>0.25 µM
Cc1ccc(NC(=S)NC(=O)c2ccccc2COc2ccc(F)cc2)cc1,EC50,RH beta-gal,,Human foreskin fibroblasts (HFF),8 µM
OC[C@H]1O[C@@H](n2cnc3c(SCc4ccc(Cl)cc4Cl)ncnc32)[C@H](O)[C@@H]1O,inhibition,RH adenosine kinase-deficient,5 µM,,0%
COc1ccc(OCc2ccccc2C(=O)NC(=S)Nc2cccc(C)c2)cc1,EC50,RH beta-gal,,Human foreskin fibroblasts (HFF),109 µM
N#CC(c1ccc(Cl)cc1)c1c(Cl)cc(-n2ncc(=O)[nH]c2=O)cc1Cl,inhibition,RH,0.001 µg/mL,,24.4%

For reference, 2 entries again:

smiles	measure	strain or isolate	dose	cell line	value
OC[C@H]1O[C@@H](n2cnc3c(SCc4ccc(Cl)cc4Cl)ncnc32)[C@H](O)[C@@H]1O	inhibition	RH adenosine kinase-deficient	5 µM		0%
CCc1ccc(C(=O)NC(=O)c2ccccc2OC)cc1	MIC50			Human foreskin fibroblasts	>0.25 µM